Assay results reported in patent US20080020981A1, “Non-nucleoside reverse transcriptase inhibitors” (Roche Palo Alto LLC, priority 2006, published 2008).

Target: HIV-RT enzyme (HIV-1 reverse transcriptase) (Human immunodeficiency virus type 1 group M subtype B, UniProt P03366)
Assay: HIV-1 Reverse Transcriptase Assay Inhibitor IC50 Determination (RNA-dependent DNA polymerase activity, SPA)
Details: read-out: HIV-RT IC50, 30 min at 30°

Row | Structure (SMILES) | IC50
1 | Cc1cc(S(N)(=O)=O)ccc1NC(=O)COc1ccc(Br)c(Oc2cc(C#N)cc(C#N)c2)c1F | 19.1 nM
2 | Cc1cc(S(N)(=O)=O)ccc1NC(=O)COc1ccc(Cl)c(Oc2cc(C#N)cc(C3CC3)c2)c1F | 18.4 nM
